One assay concerns HUVEC. Kind of assay: bFGF-stimulated HUVEC proliferation inhibition assay. The assay is classed as cell-based, human. The conditions noted are these: 0, 20, 30 μg/ml; 1 ng/ml bFGF; 72 hr; FIG. 3. The procedure: It has been known that disintegrins containing RGD sequence which is a part of recombinant Saxatilin (49–51 amino acid sequence), suppress the bFGF-stimulated endothelial cell growth. To investigate whether recombinant Saxatilin containing RGD sequence inhibits the endothelial cell proliferation, proliferation inhibition assay was performed using HUVEC. The activity of Saxatilin was compared with that of Salmosin (SEQ ID NO:10), which is known to inhibit the bFGF-stimulated endothelial cell proliferation.
HUVEC was cultured on 24-well microplate coated with gelatin at 37° C. for 24 hr under an environment of 5% CO2. After the media was replaced with 0.25 ml DMEM containing 5% fetal bovine serum, recombinant Saxatilin obtained from Example 6 and Salmosin were added in a concentration of 0, 20, and 30 μg/ml, respectively. Then, cells were further incubated for 20 min and treated with 1 ng/ml of bFGF solution. After incubation of 72 hr, cells were trypsinized and the cell numbers were counted to determine cell viability (see: FIG. 3).

Assay [1] deals with human platelet rich plasma. Kind of assay: Platelet aggregation inhibition assay, ADP-induced (Example 5). The assay is classed as cell-based. The following applies: human PRP, 25° C. The procedure:
After ADP was added into each of the PRP solutions to induce the platelet aggregation, the turbidity was measured, respectively (see: FIG. 1). In FIG. 1, (•) represents the degree of platelet aggregation inhibition of Saxatilin; (∘), Salmosin (SEQ ID NO: 10); and (▪), GRGDSP (SEQ ID NO: 7), respectively.

For orientation: IC50 means the point on the concentration scale where inhibition reaches its midpoint. A low value points to inhibition by little substance.

For Salmosin [reference compound], in the assay with HUVEC, the “effect on HUVEC growth” value was “inhibited the HUVEC growth in a dose-dependent manner”. For the same substance, in assay [1], half-maximal inhibition (IC50) required 173 nM.

Source of the values: patent US7033788B2, “Protein derived from Agkistrodon saxatilis emelianov and process preparing the same” (priority 2002, dated 2006).
